Compound potency records, mixed from different reports. Data source: NIAID ChemDB in PubChem.

Common to all: whole-cell or culture tests; species: Candida albicans; measure: MIC90

Lines come from different laboratories, so protocols vary.

Fc1ccc(COc2ccc(C(c3nccc4ccccc34)n3ccnc3)cc2)cc1 ; strain or isolate: 17 strains ; result: ≥256 µg/mL
CCCCCCCCOc1ccc(-c2ccc(C(=O)NC3CC(NCCN)CNC(=O)[C@@H]4[C@@H](O)[C@@H](C)CN4C(=O)[C@@H](CO)NC(=O)[C@H]([C@H](O)Cc4ccccc4)NC(=O)[C@@H]4C[C@@H](O)CN4C(=O)[C@H]([C@@H](C)O)NC3=O)cc2)cc1 ; strain or isolate: 33 isolates fluconazole-resistant ; result: 0.5 µg/mL
CCCCCOc1ccc(-c2cc(-c3ccc(C(=O)N[C@H]4C[C@@H](O)[C@@H](O)NC(=O)[C@@H]5[C@@H](O)[C@@H](C)CN5C(=O)[C@H]([C@H](O)CC(N)=O)NC(=O)[C@H]([C@H](O)[C@@H](O)c5ccc(O)c(OS(=O)(=O)O)c5)NC(=O)[C@@H]5C[C@@H](O)CN5C(=O)[C@H]([C@@H](C)O)NC4=O)cc3)no2)cc1 ; strain or isolate: 37 isolates ; result: 0.0156 µg/mL
C[C@H]1[C@H](O)[C@@H](C)/C=C/C=C/C=C/C=C/C=C/C=C/C=C/[C@H](O[C@@H]2O[C@H](C)[C@@H](O)[C@H](N)[C@@H]2O)C[C@@H]2O[C@](O)(C[C@@H](O)C[C@@H](O)CC[C@H](O)[C@@H](O)C[C@@H](O)CC(=O)O[C@H]1C)C[C@H](O)[C@H]2C(=O)O ; strain or isolate: 97 isolates ; result: 1 µg/mL
CCCCCOc1ccc(-c2ccc(-c3ccc(C(=O)N[C@H]4C[C@@H](O)[C@@H](O)NC(=O)[C@@H]5[C@@H](O)[C@@H](C)CN5C(=O)[C@H]([C@H](C)O)NC(=O)[C@H]([C@H](O)[C@@H](O)c5ccc(O)cc5)NC(=O)[C@@H]5C[C@@H](O)CN5C(=O)[C@H]([C@H](C)O)NC4=O)cc3)cc2)cc1 ; strain or isolate: 42 isolates ; result: 0.0078 µg/mL
Clc1cccc(Cl)c1COc1ccc(C(c2ccc(-c3ccccc3)cc2)n2ccnc2)cc1.O=[N+]([O-])O ; strain or isolate: 16 strains ; result: ≥256 µg/mL
COc1cccc(C2NCCn3c2c(C)c2ccccc23)c1 ; result: 250 µg/mL
Clc1ccccc1C(c1ccccc1)(c1ccccc1)n1ccnc1 ; strain or isolate: 16 strains ; result: 1 µg/mL
CC[C@@H]([C@H](C)O)n1ncn(-c2ccc(N3CCN(c4ccc(OC[C@@H]5CO[C@@](Cn6cncn6)(c6ccc(F)cc6F)C5)cc4)CC3)cc2)c1=O ; strain or isolate: 13 strains (fluconazole-resistant) ; result: >8 µg/mL
Clc1cccc(C(c2nccc3ccccc23)n2ccnc2)c1.O=[N+]([O-])O ; strain or isolate: 44 strains ; result: 256 µg/mL
C[C@@H](c1ncncc1F)[C@](O)(Cn1cncn1)c1ccc(F)cc1F ; setting: 24 h ; strain or isolate: Isolate HR-Micro ; result: 0.09 µg/mL
CC(=O)N1CCN(c2ccc(OC[C@H]3CO[C@](Cn4ccnc4)(c4ccc(Cl)cc4Cl)O3)cc2)CC1 ; strain or isolate: ATCC 14053 ; result: 0.5 µg/mL
CC(=O)N1CCN(c2ccc(OC[C@H]3CO[C@](Cn4ccnc4)(c4ccc(Cl)cc4Cl)O3)cc2)CC1 ; strain or isolate: 16 strains ; result: 4 µg/mL
CC(N1CCN(c2ccc(-n3cnnn3)cc2)C1=O)[C@](O)(Cn1cncn1)c1ccc(F)cc1F ; strain or isolate: 105 strains ; result: 0.25 µg/mL
c1ccc(-c2c[nH]cc2C(c2ccc3ccccc3c2)n2ccnc2)cc1 ; strain or isolate: 33 strains ; result: 16 µg/mL
CC(C)C(N)CCC(C)C1CC[C@@]2(C)C3=C(CCC12C)C1(C)CC[C@H](O)C(C)(C)C1CC3 ; strain or isolate: A.10231 ; result: 100 µg/mL
c1ccc(-c2c[nH]cc2C(c2cccc3ccccc23)n2ccnc2)cc1 ; strain or isolate: 33 strains ; result: 16 µg/mL
CCC(C)n1ncn(-c2ccc(N3CCN(c4ccc(OC[C@H]5CO[C@](Cn6cncn6)(c6ccc(Cl)cc6Cl)O5)cc4)CC3)cc2)c1=O ; strain or isolate: 131 isolates ; result: 0.25 µg/mL
C[C@@H](SC1COC(/C=C/C=C/c2ccc(C#N)cc2F)OC1)[C@](O)(Cn1cncn1)c1ccc(F)cc1F ; strain or isolate: 25 isolates fluconazole-susceptible ; result: 0.125 µg/mL
Cc1c2n(c3ccccc13)CCNC2c1ccc([N+](=O)[O-])cc1 ; result: 250 µg/mL
c1csc(C(c2cccc3ccccc23)n2ccnc2)c1 ; strain or isolate: 23 strains ; result: 16 µg/mL
C=C(Cl)CN1C[C@H](OCC23C[C@@H]4[C@H](C)CC[C@H]4C4(C=O)CC2C=C(C(C)C)C34C(=O)O)O[C@H](C)C1 ; strain or isolate: 20 isolates ; result: 0.004 µg/mL
Clc1ccccc1C(c1nccc2ccccc12)n1ccnc1 ; strain or isolate: 44 strains ; result: 256 µg/mL
Clc1cc(Cl)c(OCC#CI)cc1Cl ; strain or isolate: 13 strains ; result: 6.25 µg/mL
C=C1C[C@H](N)[C@H](C(=O)O)C1 ; strain or isolate: 69 clinical isolates ; result: 32 µg/mL
c1ccc(-c2ccc(C(c3cccc4ccccc34)n3ccnc3)cc2)cc1 ; strain or isolate: 23 strains ; result: >256 µg/mL
CCC(C)CC(C)CCCCCCCCC(=O)N[C@H]1C[C@@H](O)[C@H](NCCN)NC(=O)[C@@H]2[C@@H](O)CCN2C(=O)[C@H]([C@H](O)CCN)NC(=O)[C@H]([C@H](O)[C@@H](O)c2ccc(O)cc2)NC(=O)[C@@H]2C[C@@H](O)CN2C(=O)[C@H]([C@@H](C)O)NC1=O ; strain or isolate: 15 strains ; result: 0.25 µg/mL
Cn1cc(-c2ccccc2)c(C(c2ccc3ccccc3c2)n2ccnc2)c1 ; strain or isolate: 33 strains ; result: >256 µg/mL
Fc1ccc(COc2ccc(C(c3ccc4ccccc4c3)n3ccnc3)cc2)cc1.O=[N+]([O-])O ; strain or isolate: 17 strains ; result: ≥256 µg/mL
C[C@H]1[C@H](O)[C@@H](C)/C=C/C=C/C=C/C=C/C=C/C=C/C=C/[C@H](O[C@@H]2O[C@H](C)[C@@H](O)[C@H](N)[C@@H]2O)C[C@@H]2O[C@](O)(C[C@@H](O)C[C@@H](O)CC[C@H](O)[C@@H](O)C[C@@H](O)CC(=O)O[C@H]1C)C[C@H](O)[C@H]2C(=O)O ; strain or isolate: 63 isolates ; result: 1 µg/mL
Cc1c2n(c3ccccc13)CCNC2c1ccccc1[N+](=O)[O-] ; result: 250 µg/mL
COc1cc(O)c2c(c1)C(=O)c1c(cc3c(c1O)-c1c(cc(C)c(C(=O)NC(CO)C(=O)O)c1O)[C@H](OC1OC(C)C(O)C(OC4OCC(O)C(O)C4O)C1O)C3O)C2=O ; strain or isolate: 34 isolates ; result: 8 µg/mL
CCCCCOc1ccc(-c2cc(-c3ccc(C(=O)N[C@H]4C[C@@H](O)[C@@H](O)NC(=O)[C@@H]5[C@@H](O)[C@@H](C)CN5C(=O)[C@H]([C@H](O)CC(N)=O)NC(=O)[C@H]([C@H](O)[C@@H](O)c5ccc(O)c(OS(=O)(=O)O)c5)NC(=O)[C@@H]5C[C@@H](O)CN5C(=O)[C@H]([C@@H](C)O)NC4=O)cc3)no2)cc1 ; strain or isolate: 24 strains ; result: 0.0156 µg/mL
CCC(C)N1N=CN(c2ccc(N3CCN(c4ccc(OC[C@H]5CO[C@](Cn6cncn6)(c6ccc(F)cc6F)O5)cc4)CC3)cc2)C1O ; strain or isolate: 10 strains ; result: 0.03 µg/mL
CCC(C)n1ncn(-c2ccc(N3CCN(c4ccc(OC[C@H]5CO[C@](Cn6cncn6)(c6ccc(Cl)cc6Cl)O5)cc4)CC3)cc2)c1=O ; strain or isolate: 17 isolates fluconazole-susceptible ; result: 0.12 µg/mL
CNC(CCC(C)C1CC[C@@]2(C)C3=C(CCC12C)C1(C)CC[C@H](O)C(C)(C)C1CC3)C(C)C ; strain or isolate: A.10231 ; result: 100 µg/mL
c1ccc(-c2ccc(C(c3c[nH]cc3-c3ccccc3)n3ccnc3)cc2)cc1 ; strain or isolate: 33 strains ; result: 32 µg/mL
Clc1ccc(C(CCn2ccnc2)Oc2ccc(Cl)cc2Cl)cc1 ; strain or isolate: 20 strains ; result: 4 µg/mL
CCC(C)CC(C)CCCCCCCCC(=O)N[C@H]1C[C@@H](O)[C@@H](OCCN)NC(=O)[C@@H]2[C@@H](O)CCN2C(=O)[C@H]([C@@H](O)CCN)NC(=O)[C@H]([C@H](O)[C@@H](O)c2ccc(O)cc2)NC(=O)[C@@H]2C[C@@H](O)CN2C(=O)[C@H]([C@H](C)O)NC1=O ; strain or isolate: Fluconazole-resistant ; result: 0.06 µg/mL
Cn1cc(-c2ccccc2)c(C(c2cccc3ccccc23)n2ccnc2)c1 ; strain or isolate: 33 strains ; result: 64 µg/mL
c1csc(C(c2ccc3ccccc3c2)n2ccnc2)c1 ; strain or isolate: 23 strains ; result: 8 µg/mL
Cc1c2n(c3ccccc13)CCNC2c1ccccn1 ; result: 125 µg/mL
C=CCSS(=O)CC=C.CC(=O)N1CCN(c2ccc(OC[C@H]3CO[C@](Cn4ccnc4)(c4ccc(Cl)cc4Cl)O3)cc2)CC1 ; strain or isolate: ATCC 14053 ; result: 0.125 µg/mL

Repeating the final 6 entries:

smiles	setting	strain or isolate	result
Clc1ccc(C(CCn2ccnc2)Oc2ccc(Cl)cc2Cl)cc1		20 strains	4 µg/mL
CCC(C)CC(C)CCCCCCCCC(=O)N[C@H]1C[C@@H](O)[C@@H](OCCN)NC(=O)[C@@H]2[C@@H](O)CCN2C(=O)[C@H]([C@@H](O)CCN)NC(=O)[C@H]([C@H](O)[C@@H](O)c2ccc(O)cc2)NC(=O)[C@@H]2C[C@@H](O)CN2C(=O)[C@H]([C@H](C)O)NC1=O		Fluconazole-resistant	0.06 µg/mL
Cn1cc(-c2ccccc2)c(C(c2cccc3ccccc23)n2ccnc2)c1		33 strains	64 µg/mL
c1csc(C(c2ccc3ccccc3c2)n2ccnc2)c1		23 strains	8 µg/mL
Cc1c2n(c3ccccc13)CCNC2c1ccccn1			125 µg/mL
C=CCSS(=O)CC=C.CC(=O)N1CCN(c2ccc(OC[C@H]3CO[C@](Cn4ccnc4)(c4ccc(Cl)cc4Cl)O3)cc2)CC1		ATCC 14053	0.125 µg/mL

An empty or dashed field is not shown. A number after MIC or MFC names an inhibition level or a share of isolates.